Results taken from PMC9708728 (Frontiers in Immunology, 2022).

Target: SARS-CoV-2 RBD ([…]) with a C-terminal His tag (SARS-CoV-2)
Test: ELISA
Details: both partners purified

B1: human angiotensin-converting enzyme II fused to a human IgG Fc fragment (hACE2-Fc) (Fc fusion)
chain: not shown
For B1, the EC50 was 9.1 nM.
